Laboratory results reported in paper PMC6010014.

Key:
[1] = target: T1, HIV-1 wt RT (HIV-1 Reverse Transcriptase; RNase H and RDDP functions) (HIV-1 M:B_HXB2R, UniProt P04585); assay: RNase H, fluorescein/Dabcyl RNA/DNA hybrid cleavage; conditions: RNase H function, 250 nM RNA/DNA hybrid, 6 mM MgCl2, 80 mM KCl, 1 mM DTT, pH 7.8, 37 °C
From the text: RNase H, fluorescein/Dabcyl RNA/DNA hybrid cleavage on HIV-1 wt RT (HIV-1 Reverse Transcriptase; RNase H and RDDP functions)

[2] = target: T1, HIV-1 wt RT (HIV-1 Reverse Transcriptase; RNase H and RDDP functions); assay: RNA-dependent DNA polymerase, picogreen fluorescence; conditions: RDDP function, 2.5 µM poly(A)-oligo(dT), 100 µM dTTP, 8 mM MgCl2, 60 mM KCl, 13 mM DTT, pH 8.1, 37 °C
From the text: RNA-dependent DNA polymerase, picogreen fluorescence on HIV-1 wt RT (HIV-1 Reverse Transcriptase; RNase H and RDDP functions)

[3] = read-out: [drawing 1] / RNase H - IC50
[4] = read-out: [drawing 1] / RDDP - IC50

Row | Structure (SMILES) | IC50 ([1]; read-out: RNase H - IC50) [µM] | IC50 ([2]; read-out: RDDP - IC50) [µM] | IC50 [1, 3] [µM] | IC50 [2, 4] [µM]
1 | Cn1c(-c2ccc(C#N)cc2)csc1=NN=C1C(=O)Nc2ccc(Cl)cc21 | 27 | 28 | – | –
2 | Cn1c(-c2ccccc2)csc1=NN=C1C(=O)Nc2ccc(Cl)cc21 | 25 | 100 | – | –
3 | COc1ccc(-c2csc(=NN=C3C(=O)Nc4ccccc43)n2C)cc1 | – | – | 27 | 17.9
4 | Cn1c(-c2ccc(Cl)cc2)csc1=NN=C1C(=O)Nc2ccc(Cl)cc21 | – | 39 | – | –
5 | Cn1c(-c2ccc(F)cc2F)csc1=NN=C1C(=O)Nc2ccccc21 | – | – | 12.5 | 30
6 | Cc1ccc(-c2csc(=NN=C3C(=O)Nc4ccc(Cl)cc43)n2C)cc1 | 19 | 85 | – | –
7 | Cn1c(-c2ccc(F)cc2)csc1=NN=C1C(=O)Nc2ccc(Cl)cc21 | 18.9 | 31 | – | –
8 | Cn1c(-c2ccc(Br)cc2)csc1=NN=C1C(=O)Nc2ccc(Cl)cc21 | 23 | 34 | – | –
9 | Cn1c(-c2ccc(Cl)c(Cl)c2)csc1=NN=C1C(=O)Nc2ccccc21 | – | – | 24 | 50
10 | Cn1c(-c2ccc([N+](=O)[O-])cc2)csc1=NN=C1C(=O)Nc2ccc(Cl)cc21 | 21 | 26 | – | –
11 | Cn1c(-c2ccc(Br)cc2)csc1=NN=C1C(=O)Nc2ccccc21 | – | – | 29 | 100
12 | Cn1c(-c2ccccc2)csc1=NN=C1C(=O)Nc2ccccc21 | – | – | 19.9 | 15
13 | Cn1c(-c2ccc(C#N)cc2)csc1=NN=C1C(=O)Nc2ccccc21 | – | – | 21 | 27
14 | Cn1c(-c2ccc(Cl)cc2)csc1=NN=C1C(=O)Nc2ccccc21 | – | – | 17.5 | 24
15 | Cc1ccc(-c2csc(=NN=C3C(=O)Nc4ccccc43)n2C)cc1 | – | – | 15.9 | 29
16 | Cn1c(-c2ccc(-c3ccccc3)cc2)csc1=NN=C1C(=O)Nc2ccccc21 | – | – | 25 | 35
17 | Cn1c(-c2ccc(Cl)cc2Cl)csc1=NN=C1C(=O)Nc2ccccc21 | – | – | 15 | 19.6
18 | Cn1c(-c2cccc([N+](=O)[O-])c2)csc1=NN=C1C(=O)Nc2ccc(Cl)cc21 | 17.5 | 60 | – | –
19 | Cn1c(-c2ccc(F)cc2)csc1=NN=C1C(=O)Nc2ccccc21 | – | – | 28 | 30
20 | Cn1c(-c2ccc(Cl)c(Cl)c2)csc1=NN=C1C(=O)Nc2ccc(Cl)cc21 | 16.7 | 98 | – | –
21 | Cn1c(-c2ccc(-c3ccccc3)cc2)csc1=NN=C1C(=O)Nc2ccc(Cl)cc21 | 10 | 9.5 | – | –
22 | COc1ccc(-c2csc(=NN=C3C(=O)Nc4ccc(Cl)cc43)n2C)cc1 | 15.1 | 28 | – | –
23 | Cn1c(-c2ccc([N+](=O)[O-])cc2)csc1=NN=C1C(=O)Nc2ccccc21 | – | – | 17.2 | 15.6
24 | Cn1c(-c2ccc(F)cc2F)csc1=NN=C1C(=O)Nc2ccc(Cl)cc21 | 21 | 54 | – | –
25 | Cn1c(-c2cccc([N+](=O)[O-])c2)csc1=NN=C1C(=O)Nc2ccccc21 | – | – | 24 | 69
